Numbering of substitutions follows the chain as printed. Human monoclonal antibodies against the spike receptor-binding domain (heavy:light variable regions). IC50 against pseudoviruses bearing the spike of naturally observed variants; lower = stronger; >10 µg/ml means not reached at the top dose. No active / inactive call. The stated detection limit is 0.0005 µg/ml; values near or below 0.001 µg/ml lie at the floor of the assay.
B1: BD55-5931 (protein)
chain 1: EVQLVESGGGLVKPGGSLRLSCAASGFTFSHYGMNWVRQAPGKGLEWVSSISSSGSHIFYADSVEGRFTISRDNAKNSLYLQMNRLTVEDTSVFYCARCPGLGYCSPSSPLGDSWGRGTLVTVSS
chain 2: QSVLTQPPSVSGAPGQRVTISCTGSSSNIGAGYDVHWYQQLPGAAPRLLIYGNSDRPSGVPDRFSGSKSGTSASLAITGLQSEDEADYYCQSYDSSLSGPYVFGTGTKVTVL
B2: BD55-1129 (protein)
chain 1: EVQLVESGGGLVQPGRSLRLSCAASGFFFDDYAMHWVRQAPGKGLEWVSGINWSSGTIAYADSVKGRFTISRDNTKSSLYLQMNSLRDDDTALYYCARDKVAEILPLGYFDPWGQGTLVIVSS
chain 2: QSVLTQPPSASGTPGQRVTISCSGSSSKIGFNTVNWYQQLPGAAPKLLIYTNNQRPSGVPDRFSGSKSGTSASLAISGLQSEDEADYYCAAWDDRLTGWVFGGGTKLTVL
B3: BD55-5927 (protein)
chain 1: EVRLVESGGGLVQPGRSLRLSCAASGFIFDDYSMHWVRQAPGKGLEWVSSINWNSGRIDYADSVKGRFTISRDNAKNSLFLQMIRLRPEDTALYYCAKPLSSGWTFSGTTDDAFEIWGQGTMVTVSS
chain 2: QSALTQPPSVSGSPGQSVTISCTGTSSDVGSFHRVSWYQQPPGTAPKLMIYEVNNRPSGVPDRFSGSKSGNTASLTISGLQAEDEADYYCSSYTITNTWVFGGGTKVTVL
B4: BD55-5923 (protein)
chain 1: EVQLVESGGGLVQPGGSLRLSCAASGITVSSNYMSWVRQAPGKGLEWVSVIYSGGSTFYADSVRGRFTISRDNSKNTLYLQMNSLRVEDTAVYYCARVQRDEAWGQGTLVTVSS
chain 2: DIQMTQSPSSLSAFVGDRVTITCQASQDIRNYLNWYQQKPGKAPKILIHDASNLETGVPSRFSGSGSGTHFTLTIRSLQPEDIATYYCQQSDNLPYTFGQGTKLEIK
B5: BD55-5948 (protein)
chain 1: QMQLVQSGPEVKKPGTSVKVSCKASGFTFFSSAVQWVRQARGQRLEWIGWIVAGSGNTNYAQRFQERVTITRDMSTTTAYMELFSLRSEDTAVYYCAAVIPYYYQSIGSRFWGQGTLVTVSS
chain 2: DIQMTQSPSTLSASVGDRVTITCRASQNINNWLAWYQHKPGKAPKLLIYEASNLESGVPSRFSGSGSGTEFTLTISSLQPDDFATYYCQQYHRYSGGLGQGTKVEIK
B6: BD55-5909 (protein)
chain 1: QVQLVQSGAEVKKPGSSVKVSCKASGGTFSTYAISWVRQAPGQGLEWMGRIIPMIGIPNYAQKFQGRVTITADKSTSTAYMELRSLRSEDTAVYYCAKDEGEYQLLYSYFDPWGQGTLVTVSS
chain 2: EIVMTQSPATLSVSPGERATLSCRASQFVSSNLAWYQQKPGQAPRLLIYGASTRATGIPARFSGSGSGTEFTLTISSLQSEDFAVYYCQQYNNWPPFGWTFGQGTKVEIK
B7: BD55-5941 (protein)
chain 1: B6 chain 1 with M54G, I55V, A79V, R84S, S88F, K98R, Y109W
chain 2: B6 chain 2 with F28S
B8: BD55-5908 (protein)
chain 1: QVQLVQSGAEVKKPGSSVKVSCKASGGTFYNYAINWVRQAPGQGLEWMGRIIPTLGIPNYAQKFQGRVTITADKSTSTAYMELSSLRSEDTAVFYCATSTYESSYASSAYPLDHWGQGTLVTVSS
chain 2: DIQMTQSPSSLSASVGDRVTITCRASQSISNYLNWYQQKPGKAPKLLIYAASDLQSGVPSRFSGSGSGTDFTLTISSLQPEDFATYYCQQTYSPPRTFGQGTKVEIK
B9: BD55-5955 (protein)
chain 1: EVQLVESGGGLVQPGGSLRLSCAASGLTVSRNYMCWVRQAPGKGLEWVSVIYTGGGTNYADSVKGRVTISRDNSKNIVFLQMNSLRAEDTAVYFCAWYYYDGTGYARFDYWGQGTLVTVSS
chain 2: DIQMTQSPSSLPASVGDRVTITCRASQNISSYLNWYQQQPGKAPNLLIYAASSLQSGVPSRFSGSGSGTDFTLTIRSLQPEDFATYYCQQSYSALSITFGQGTRLEIK
B10: BD55-5957 (protein)
chain 1: QVQLVQSGAEVKKPGASVKVSCKASGYTFTSYGISWVRQAPGQGLEWMGWISAYNGYTNYAQKLQGRVTMTTDTSTYTAYMELRSLRSDDTAVYYCGVTEGCSSTSCYTGYYYYGMDVWGQGTTVTVSS
chain 2: EIVLTQSPATLSLSPGERATLSCGASQNVSSTYLAWYQQKPGLAPRLLIYDASSRATGIPDRFSGSGSGTDFTLTISRLEPEDFAVYYCQQYGSSPRTFGQGTKVEIK
B11: BD55-5962 (protein)
chain 1: QVQLVQSGAEMKKPGSSVKVSCKASGGTFTSYAISWVRQAPGQGLEWMGRFIPILGIANYAQKFQDSVTLTADMSTTTAYMELSSLRYDDTAVYYCARDRYSGFDYDSVPDYWGQGTLVTVSS
chain 2: B10 chain 2 with A9G, G24R, N28S, T32S, Y37F, L43Q, D51A, Y92S, G93H, R97W
B12: BD55-5907 (protein)
chain 1: QVQLVESGGGVVQPGRSLRLSCAASGFTFSNYGMHWVRQAPGKGLEWVALISYDGSNKYYADSVRGRFTVSRDNSKNTLYLQMNTLRVDDTGIYYCVIAVADHYYFYDGVDVWGQGTAVTVSS
chain 2: DIVMTQSPLSLPVTPGEPASISCRSSQSLLHTNGFDYLDWYVQKPGHSPQLLIYLGSNRASGVPDRFSGSGSGTDFTLKISRVEAEDVGIYYCMQALQTPITFGQGTRLEIK

Molecular target: SARS-CoV-2 Omicron BA.1 spike pseudovirus
Assay: pseudovirus neutralization IC50; higher = weaker neutralization
Description: (§1)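 Single-round VSV luciferase pseudovirus mixed with antibody dilutions for 1 h and put on Huh-7 cells for about a day; IC50 from the dose curve.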

| Binder | pseudovirus neutralization IC50 |
| --- | --- |
| B1 | > 10 µg/mL |
| B2 | > 10 µg/mL |
| B3 | > 10 µg/mL |
| B4 | > 10 µg/mL |
| B5 | > 10 µg/mL |
| B6 | > 10 µg/mL |
| B7 | > 10 µg/mL |
| B8 | > 10 µg/mL |
| B9 | 0.314 µg/mL |
| B10 | 0.788 µg/mL |
| B11 | > 10 µg/mL |
| B12 | > 10 µg/mL |

Molecular target: SARS-CoV-2 Omicron BA.2 spike pseudovirus
Assay: as above
Description: as §1

| Binder | pseudovirus neutralization IC50 |
| --- | --- |
| B1 | > 10 µg/mL |
| B2 | > 10 µg/mL |
| B3 | > 10 µg/mL |
| B4 | > 10 µg/mL |
| B5 | > 10 µg/mL |
| B6 | > 10 µg/mL |
| B7 | > 10 µg/mL |
| B8 | > 10 µg/mL |
| B9 | 0.304 µg/mL |
| B10 | 0.805 µg/mL |
| B11 | > 10 µg/mL |
| B12 | > 10 µg/mL |

Molecular target: SARS-CoV-2 Omicron BA.2.75 spike pseudovirus
Assay: as above
Description: as §1

| Binder | pseudovirus neutralization IC50 |
| --- | --- |
| B1 | > 10 µg/mL |
| B2 | > 10 µg/mL |
| B3 | > 10 µg/mL |
| B4 | > 10 µg/mL |
| B5 | > 10 µg/mL |
| B6 | > 10 µg/mL |
| B7 | > 10 µg/mL |
| B8 | > 10 µg/mL |
| B9 | 0.23 µg/mL |
| B10 | 0.169 µg/mL |
| B11 | > 10 µg/mL |
| B12 | > 10 µg/mL |

Molecular target: SARS-CoV-2 Omicron BA.5 spike pseudovirus
Assay: as above
Description: as §1

| Binder | pseudovirus neutralization IC50 |
| --- | --- |
| B1 | > 10 µg/mL |
| B2 | > 10 µg/mL |
| B3 | > 10 µg/mL |
| B4 | > 10 µg/mL |
| B5 | > 10 µg/mL |
| B6 | > 10 µg/mL |
| B7 | > 10 µg/mL |
| B8 | > 10 µg/mL |
| B9 | > 10 µg/mL |
| B10 | > 10 µg/mL |
| B11 | > 10 µg/mL |
| B12 | > 10 µg/mL |

Molecular target: SARS-CoV-2 Omicron BQ.1.1 spike pseudovirus
Assay: as above
Description: as §1

| Binder | pseudovirus neutralization IC50 |
| --- | --- |
| B1 | > 10 µg/mL |
| B2 | > 10 µg/mL |
| B3 | > 10 µg/mL |
| B4 | > 10 µg/mL |
| B5 | > 10 µg/mL |
| B6 | > 10 µg/mL |
| B7 | > 10 µg/mL |
| B8 | > 10 µg/mL |
| B9 | > 10 µg/mL |
| B10 | > 10 µg/mL |
| B11 | > 10 µg/mL |
| B12 | > 10 µg/mL |

Molecular target: SARS-CoV-2 Omicron XBB spike pseudovirus
Assay: as above
Description: as §1

| Binder | pseudovirus neutralization IC50 |
| --- | --- |
| B1 | > 10 µg/mL |
| B2 | > 10 µg/mL |
| B3 | > 10 µg/mL |
| B4 | > 10 µg/mL |
| B5 | > 10 µg/mL |
| B6 | > 10 µg/mL |
| B7 | > 10 µg/mL |
| B8 | > 10 µg/mL |
| B9 | > 10 µg/mL |
| B10 | > 10 µg/mL |
| B11 | > 10 µg/mL |
| B12 | > 10 µg/mL |

Molecular target: SARS-CoV-2 early D614G spike pseudovirus
Assay: as above
Description: as §1

| Binder | pseudovirus neutralization IC50 |
| --- | --- |
| B1 | > 10 µg/mL |
| B2 | 0.0942 µg/mL |
| B3 | 0.244 µg/mL |
| B4 | 0.03 µg/mL |
| B5 | 1.86 µg/mL |
| B6 | 0.108 µg/mL |
| B7 | > 10 µg/mL |
| B8 | 0.00206 µg/mL |
| B9 | 0.001 µg/mL |
| B10 | 0.802 µg/mL |
| B11 | > 10 µg/mL |
| B12 | > 10 µg/mL |
